Pooled drug test results. Numbers come from NIAID ChemDB, via PubChem.

Common to all: tests in culture; organism: Mycobacterium smegmatis

MIC50, MIC90 and the like: level of inhibition, or share of isolates inhibited. Rows are shuffled and stem from different studies. Zone: diameter of growth inhibition.

{"smiles": "O=C(O)c1cc(C(F)(F)F)cc2c(=O)nc(N3CCN(CC4CCCCC4)CC3)sc12", "method": "resazurin", "endpoint": "MIC99", "strain or isolate": "GM22", "value": ">100 µg/mL"}
{"smiles": "COc1ccc(-c2nn(-c3ccccc3)cc2C2C3=C(NC(C)(c4cc(O)ccc4Cl)NC3=O)Oc3c2c(C)nn3-c2ccccc2)cc1", "method": "agar diffusion / agar", "tested at": "0.1 mg/mL", "endpoint": "zone", "strain or isolate": "NCIM 5138", "value": "2.8 mm"}
{"smiles": "CC1CN(c2c(F)cc3c(=O)c(C(=O)O)cn(C4CC4)c3c2F)CC(C)N1", "endpoint": "MIC99", "strain or isolate": "KD1163 (GRYA+)", "value": "0.049 µg/mL"}
{"smiles": "COc1ccc(-c2nn(-c3ccccc3)cc2C2C3=C(NC(C)(c4cc(O)c(I)cc4Cl)NC3=O)Oc3c2c(C)nn3-c2ccccc2)cc1", "method": "agar diffusion / agar", "tested at": "0.5 mg/mL", "endpoint": "zone", "strain or isolate": "NCIM 5138", "value": "10.8 mm"}
{"smiles": "CC(C(=O)O)c1ccc2[nH]c3ccc(Cl)cc3c2c1", "method": "resazurin / visual reading / absorbance", "endpoint": "MIC99", "value": ">500 µg/mL"}
{"smiles": "CC1CN(c2c(F)cc3c(=O)c(C(=O)O)cn(C4CC4)c3c2F)CCN1", "endpoint": "MIC99", "strain or isolate": "KD2008 (GYRA G89C)", "value": "1 µg/mL"}
{"smiles": "CC(C(=O)O)c1ccc2c(c1)[nH]c1ccc(-c3ccccc3)cc12", "method": "resazurin / visual reading / absorbance", "endpoint": "MIC99", "value": ">500 µg/mL"}
{"smiles": "Cc1nn(-c2ccccc2)c2c1C(c1cn(-c3ccccc3)nc1-c1ccc(Cl)cc1)C1=C(NC(C)(c3cc(O)c(I)cc3Cl)NC1=O)O2", "method": "agar diffusion / agar", "tested at": "0.1 mg/mL", "endpoint": "zone", "strain or isolate": "NCIM 5138", "value": "4.2 mm"}
{"smiles": "C[C@H]1NCc2cc(-c3ccc4c(=O)c(C(=O)O)cn(C5CC5)c4c3OC(F)F)ccc21", "endpoint": "MIC", "strain or isolate": "A28315", "value": "0.13 µg/mL"}
{"smiles": "O=C(O)Cc1ccc2[nH]c3ccc(Br)cc3c2c1", "method": "resazurin / visual reading / absorbance", "endpoint": "MIC99", "value": ">250 µg/mL"}
{"smiles": "O=C(O)c1cn(C2CC2)c2c(F)c(N3CCNCC3)c(F)cc2c1=O", "endpoint": "MIC99", "strain or isolate": "KD1163 (GRYA+)", "value": "0.044 µg/mL"}
{"smiles": "COc1cccc(-c2ccc3[nH]c4cc(C(C)C(=O)O)ccc4c3c2)c1", "method": "resazurin / visual reading / absorbance", "endpoint": "MIC99", "value": ">500 µg/mL"}
{"smiles": "C[C@H]1COC2(CCN(c3nc(=O)c4cc(C(F)(F)F)cc(C(=O)O)c4s3)CC2)O1", "method": "resazurin", "endpoint": "MIC99", "strain or isolate": "MN47", "value": "25 µg/mL"}
{"smiles": "CC[C@@H](CO)NCCN[C@@H](CC)CO", "method": "broth dilution", "endpoint": "MIC99", "strain or isolate": "ATCC 607", "value": "<0.2 µg/mL"}
{"smiles": "COc1ccccc1-c1ccc2[nH]c3cc(C(C)C(=O)O)ccc3c2c1", "method": "resazurin / visual reading / absorbance", "endpoint": "MIC99", "value": ">500 µg/mL"}
{"smiles": "COc1c(N2CCNC(C)C2)c(F)cc2c(=O)c(C(=O)O)cn(C3CC3)c12", "endpoint": "MIC99", "strain or isolate": "KD1998 (GYRA D95N)", "value": "0.66 µg/mL"}
{"smiles": "Cc1nn(-c2ccccc2)c2c1C(c1cn(-c3ccccc3)nc1-c1ccc(Cl)cc1)C1=C(NC(C)(c3cc(O)ccc3Cl)NC1=O)O2", "method": "agar diffusion / agar", "tested at": "1 mg/mL", "endpoint": "zone", "strain or isolate": "NCIM 5138", "value": "3.6 mm"}
{"smiles": "CCC1CN(c2cc3c(cc2F)c(=O)c(C(=O)O)cn3C2CC2)CCN1", "endpoint": "MIC99", "strain or isolate": "KD2003 (GYRA D95G)", "value": "3.8 µg/mL"}
{"smiles": "Cc1nn(-c2ccccc2)c2c1C(c1cn(-c3ccccc3)nc1-c1ccc(Cl)cc1)C1=C(NC(C)(c3cc(O)cc(O)c3)NC1=O)O2", "method": "agar diffusion / agar", "tested at": "0.1 mg/mL", "endpoint": "zone", "strain or isolate": "NCIM 5138", "value": "1.6 mm"}

Repeating the final 3 entries:

{"smiles": "Cc1nn(-c2ccccc2)c2c1C(c1cn(-c3ccccc3)nc1-c1ccc(Cl)cc1)C1=C(NC(C)(c3cc(O)ccc3Cl)NC1=O)O2", "method": "agar diffusion / agar", "tested at": "1 mg/mL", "endpoint": "zone", "strain or isolate": "NCIM 5138", "value": "3.6 mm"}
{"smiles": "CCC1CN(c2cc3c(cc2F)c(=O)c(C(=O)O)cn3C2CC2)CCN1", "endpoint": "MIC99", "strain or isolate": "KD2003 (GYRA D95G)", "value": "3.8 µg/mL"}
{"smiles": "Cc1nn(-c2ccccc2)c2c1C(c1cn(-c3ccccc3)nc1-c1ccc(Cl)cc1)C1=C(NC(C)(c3cc(O)cc(O)c3)NC1=O)O2", "method": "agar diffusion / agar", "tested at": "0.1 mg/mL", "endpoint": "zone", "strain or isolate": "NCIM 5138", "value": "1.6 mm"}